# Test results from PubChem BioAssay AID1619 (SRMLSC, 2009).
# Amino acid sequences for entries named in this document (tags omitted). A change or cut given only in a name is not applied to a line headed by its entry.
# UniProt Q8IL11: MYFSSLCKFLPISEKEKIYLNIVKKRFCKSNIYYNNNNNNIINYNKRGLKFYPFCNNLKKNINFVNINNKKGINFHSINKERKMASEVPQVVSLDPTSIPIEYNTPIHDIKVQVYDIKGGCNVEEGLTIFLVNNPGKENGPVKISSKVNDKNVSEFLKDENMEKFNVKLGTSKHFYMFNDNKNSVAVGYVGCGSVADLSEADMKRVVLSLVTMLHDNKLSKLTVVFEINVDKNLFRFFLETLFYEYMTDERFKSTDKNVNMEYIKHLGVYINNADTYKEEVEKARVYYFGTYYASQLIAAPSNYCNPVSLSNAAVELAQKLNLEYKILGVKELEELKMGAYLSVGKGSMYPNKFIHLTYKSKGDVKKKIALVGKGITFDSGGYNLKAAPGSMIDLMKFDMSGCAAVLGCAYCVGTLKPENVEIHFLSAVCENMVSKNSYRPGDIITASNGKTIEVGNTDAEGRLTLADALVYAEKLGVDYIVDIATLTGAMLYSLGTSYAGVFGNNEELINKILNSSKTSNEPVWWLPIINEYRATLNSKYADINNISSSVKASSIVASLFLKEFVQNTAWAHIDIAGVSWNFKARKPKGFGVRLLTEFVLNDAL
# The other results are listed elsewhere or left out. Entries with a potency or affinity are not part of this list. The source made the active and inactive calls.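 Rule for the calls: active = compound inhibiting the enzyme by more than half at any dose during confirmatory dose-response retesting; inconclusive = strong single-dose inhibitors picked by rank but not retested; inactive = the rest.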
# Target: Leucine aminopeptidase (Plasmodium falciparum (isolate 3D7)) (UniProt Q8IL11)
# Test: P. falciparum M17LAP inhibitors, primary screen, biochemical, fluorogenic H-Leu-NHMec substrate, 1536-well (AID 1619);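 note: plate controls were full reaction with DMSO carrier for no effect and no enzyme background for full effect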
# Details: recombinant M17LAP, H-Leu-NHMec fluorogenic kinetic assay; at 30 µM; hits give high values
row,Structure (SMILES),inhibition
1,O=P(Nc1nccs1)(c1ccccc1)c1ccccc1,inactive: -1.29%
2,Clc1n[nH]nc1-c1nn[nH][15n]1,inactive: 16.1%
3,CC(C)(C)C(=O)NC(Sc1ncccn1)C(Cl)(Cl)Cl (configuration not stated),inactive: 3.64%
4,O=P1(Nc2ccccn2)COc2ccccc2OC1,inactive: 5.76%
5,CCOP(=O)(Nc1ccc(C)cn1)OCC,inactive: -3.67%
6,CC(C)/C=N\N=C(\N)N[N+](=O)[O-],inactive: -3.47%
7,CN(C(=O)Cc1ccc(Cl)c(Cl)c1)[C@@H]1CCCC[C@H]1N1CCCC1,inactive: 1.28%
8,O=[As](O)(c1ccccc1Br)c1ccccc1Br,inactive: -13.3%
9,CN(C)C1(CNC(=O)c2ccc(S(C)(=O)=O)cc2)CCCCC1,inactive: 3.43%
10,O=C(/C=C/c1ccccc1)OC1CN2CCC1CC2 (configuration not stated),inactive: -8.73%
11,Cc1nn(-c2ccccc2)c2c1P(=O)(N1CCOCC1)N(C)C(c1ccccc1)=N2 (configuration not stated),inactive: -2.87%
12,CC1CCC(C(C)C)C(OP(=O)(Nc2ccccn2)c2ccccc2)C1 (configuration not stated),inactive: -3.2%
13,Nc1cccc([As](=O)(O)c2ccccc2)c1,inactive: 1.54%
14,O=P1(Nc2ccc(Br)cn2)COc2ccccc2OC1,inactive: 20%
15,O=[As](O)(c1cccs1)c1cccs1,inactive: 3.97%
16,Cc1ccc(OCC(=O)OC2CN3CCC2CC3)cc1 (configuration not stated),inactive: -16.4%
17,O=P1(Nc2ncccn2)COc2ccccc2OC1,inactive: 13.8%
18,Nc1ccccc1[As](=O)(O)c1ccccc1,inactive: -1.33%
19,O=C(O)COc1ccc([As](=O)(O)O)cc1[N+](=O)[O-],inactive: 2.09%
20,CCOP1(=S)c2c(C)nn(CCC#N)c2N=C(c2ccccc2F)N1C (configuration not stated),inactive: 5.4%
21,O=P(Nc1nccs1)(c1ccccc1)c1nc2ccccc2s1 (configuration not stated),inactive: -7.53%

row,Structure (SMILES),inhibition
1,O=P(Nc1nccs1)(Oc1ccccc1)Oc1ccccc1,inactive: 1.11%
2,CS(=O)(=O)c1cc([N+](=O)[O-])c2no[n+]([O-])c2c1,inactive: 31.9%
3,CCOP1(=S)c2c(C)nn(CCC#N)c2N=C(c2ccc(F)cc2)N1C (configuration not stated),inactive: -0.21%
4,CN(C(=O)Cc1ccccc1)[C@@H]1CC[C@]2(CCCO2)C[C@H]1N1CCCC1,inactive: 1.56%
5,O=[N+]([O-])c1ccc2c(c1)nnn2O,inactive: -8.02%
6,NC(=O)Nc1ccc([As](=O)(O)O)cc1,inactive: -3.12%
7,O=[As](O)(c1cccc(O)c1)c1cccc(O)c1,inactive: 4.61%
8,Cc1cccc(OCC(=O)OC2CN3CCC2CC3)c1 (configuration not stated),inactive: -16%
9,O=C(OC1CN2CCC1CC2)c1ccc(Cl)cc1 (configuration not stated),inactive: 5.29%
10,COc1cc(C(=O)NCC2(N3CCOCC3)CCCCC2)cc(Cl)c1OC(C)C,inactive: -7.11%
11,O=[As](O)(O)c1cccnc1,inactive: 0.96%
12,COc1cc(C2NCCC3(OCCO3)C2(C)C)cc(OC)c1OC (configuration not stated),inactive: 19.7%
13,CCOP(=O)(Nc1cccc2ccccc12)OCC,inactive: 4.44%
14,Nc1cccc2c([As](=O)(O)O)cccc12,inactive: 9.06%
15,Cc1ccc(NCCc2c([N+](=O)[O-])cc([N+](=O)[O-])cc2[N+](=O)[O-])cc1,inactive: 13.3%
16,CCCOP(=S)(Nc1nc(N)cc(=O)[nH]1)OCCC,inactive: 0.1%
17,COc1ccc2nc(NP(=O)(c3ccccc3)c3ccccc3)sc2c1,inactive: -2.4%
18,COc1cc(I)ccc1[As](=O)(O)O,inactive: -3.03%
19,Cc1c2c(nc3ccccc13)SC(C(Cl)Cl)C2 (configuration not stated),inactive: 2.33%
20,O=C(OC1CN2CCC1CC2)C12CC3CC(CC(C3)C1)C2 (configuration not stated),inactive: 1.69%
21,Cc1cc(=O)[nH]c(N[N+](=O)[O-])n1,inactive: 2.54%

row,Structure (SMILES),inhibition
1,COc1ccc(N/C(=N/P(=O)(N2CCOCC2)N2CCOCC2)N2CCOCC2)cc1,inactive: 10.7%
2,Cc1ccc(OP(=O)(Nc2ccc([N+](=O)[O-])cn2)Oc2ccc(C)cc2)cc1,inactive: -4.54%
3,Cc1ccc2nc3c(c(C)c2c1)CC(C(Cl)Cl)S3 (configuration not stated),inactive: -10.2%
4,O=[As](O)(c1ccc(O)cc1)c1ccccc1O,inactive: 21.3%
5,C[As](=O)(O)c1cccc(C(=O)O)c1,inactive: -4.16%
6,CCN(CC)C(=S)SC(NC=O)C(Cl)(Cl)Cl (configuration not stated),inactive: -8.46%
7,CC(C)NC(=O)NP(=O)(Oc1ccccc1)Oc1ccccc1,inactive: -1.75%
8,O=[N+]([O-])c1cc([N+](=O)[O-])c(-c2ccn[nH]2)s1,inactive: 13.7%
9,ClCCSc1nnc(-c2cccnc2)o1,inactive: 26.4%
10,CC(C)c1ccc(OP(=O)(Nc2ccccn2)Oc2ccccc2F)cc1 (configuration not stated),inactive: -6.26%
11,Cc1cc(SC(NC(=O)c2ccccc2)C(Cl)(Cl)Cl)nc(C(C)C)n1 (configuration not stated),inactive: 6.27%
12,CCOC(=O)Nc1ccc([As](=O)(O)O)c(O)c1,inactive: 2.3%
13,O=P(Nc1ccccn1)(c1cccc2ccccc12)c1cccc2ccccc12,inactive: -4.99%
14,Cc1cc(SC(NC=O)C(Cl)(Cl)Cl)ncn1 (configuration not stated),inactive: -0.23%
15,O=[N+]([O-])c1ccc(Nc2ccc(Oc3ccc([N+](=O)[O-])cc3[N+](=O)[O-])cc2)c([N+](=O)[O-])c1,inactive: -1.33%
16,CCOC(=O)Nc1cccc([As](=O)(O)O)c1,inactive: -4.42%
17,O=C(COc1ccccc1)OC1CN2CCC1CC2 (configuration not stated),inactive: 2.28%
18,COP1(=S)c2c(C)nn(CCC#N)c2N=C(c2ccc(F)cc2)N1C (configuration not stated),inactive: 2.7%
19,CCC(C)N(CC(C)C)C(=S)SC(NC(C)=O)C(Cl)(Cl)Cl (configuration not stated),inactive: 0.42%
20,CCOC(=O)c1ccc(NC(=O)C(C)(CCl)SC)cc1 (configuration not stated),inactive: -0.38%
